Earlier results as cited in publication PMC3395435 (Biopolymers, 2012).

Protein sequences, listed by entry. Tags and fused reporters are not part of them.
UniProt Q00975, whole entry, looked up: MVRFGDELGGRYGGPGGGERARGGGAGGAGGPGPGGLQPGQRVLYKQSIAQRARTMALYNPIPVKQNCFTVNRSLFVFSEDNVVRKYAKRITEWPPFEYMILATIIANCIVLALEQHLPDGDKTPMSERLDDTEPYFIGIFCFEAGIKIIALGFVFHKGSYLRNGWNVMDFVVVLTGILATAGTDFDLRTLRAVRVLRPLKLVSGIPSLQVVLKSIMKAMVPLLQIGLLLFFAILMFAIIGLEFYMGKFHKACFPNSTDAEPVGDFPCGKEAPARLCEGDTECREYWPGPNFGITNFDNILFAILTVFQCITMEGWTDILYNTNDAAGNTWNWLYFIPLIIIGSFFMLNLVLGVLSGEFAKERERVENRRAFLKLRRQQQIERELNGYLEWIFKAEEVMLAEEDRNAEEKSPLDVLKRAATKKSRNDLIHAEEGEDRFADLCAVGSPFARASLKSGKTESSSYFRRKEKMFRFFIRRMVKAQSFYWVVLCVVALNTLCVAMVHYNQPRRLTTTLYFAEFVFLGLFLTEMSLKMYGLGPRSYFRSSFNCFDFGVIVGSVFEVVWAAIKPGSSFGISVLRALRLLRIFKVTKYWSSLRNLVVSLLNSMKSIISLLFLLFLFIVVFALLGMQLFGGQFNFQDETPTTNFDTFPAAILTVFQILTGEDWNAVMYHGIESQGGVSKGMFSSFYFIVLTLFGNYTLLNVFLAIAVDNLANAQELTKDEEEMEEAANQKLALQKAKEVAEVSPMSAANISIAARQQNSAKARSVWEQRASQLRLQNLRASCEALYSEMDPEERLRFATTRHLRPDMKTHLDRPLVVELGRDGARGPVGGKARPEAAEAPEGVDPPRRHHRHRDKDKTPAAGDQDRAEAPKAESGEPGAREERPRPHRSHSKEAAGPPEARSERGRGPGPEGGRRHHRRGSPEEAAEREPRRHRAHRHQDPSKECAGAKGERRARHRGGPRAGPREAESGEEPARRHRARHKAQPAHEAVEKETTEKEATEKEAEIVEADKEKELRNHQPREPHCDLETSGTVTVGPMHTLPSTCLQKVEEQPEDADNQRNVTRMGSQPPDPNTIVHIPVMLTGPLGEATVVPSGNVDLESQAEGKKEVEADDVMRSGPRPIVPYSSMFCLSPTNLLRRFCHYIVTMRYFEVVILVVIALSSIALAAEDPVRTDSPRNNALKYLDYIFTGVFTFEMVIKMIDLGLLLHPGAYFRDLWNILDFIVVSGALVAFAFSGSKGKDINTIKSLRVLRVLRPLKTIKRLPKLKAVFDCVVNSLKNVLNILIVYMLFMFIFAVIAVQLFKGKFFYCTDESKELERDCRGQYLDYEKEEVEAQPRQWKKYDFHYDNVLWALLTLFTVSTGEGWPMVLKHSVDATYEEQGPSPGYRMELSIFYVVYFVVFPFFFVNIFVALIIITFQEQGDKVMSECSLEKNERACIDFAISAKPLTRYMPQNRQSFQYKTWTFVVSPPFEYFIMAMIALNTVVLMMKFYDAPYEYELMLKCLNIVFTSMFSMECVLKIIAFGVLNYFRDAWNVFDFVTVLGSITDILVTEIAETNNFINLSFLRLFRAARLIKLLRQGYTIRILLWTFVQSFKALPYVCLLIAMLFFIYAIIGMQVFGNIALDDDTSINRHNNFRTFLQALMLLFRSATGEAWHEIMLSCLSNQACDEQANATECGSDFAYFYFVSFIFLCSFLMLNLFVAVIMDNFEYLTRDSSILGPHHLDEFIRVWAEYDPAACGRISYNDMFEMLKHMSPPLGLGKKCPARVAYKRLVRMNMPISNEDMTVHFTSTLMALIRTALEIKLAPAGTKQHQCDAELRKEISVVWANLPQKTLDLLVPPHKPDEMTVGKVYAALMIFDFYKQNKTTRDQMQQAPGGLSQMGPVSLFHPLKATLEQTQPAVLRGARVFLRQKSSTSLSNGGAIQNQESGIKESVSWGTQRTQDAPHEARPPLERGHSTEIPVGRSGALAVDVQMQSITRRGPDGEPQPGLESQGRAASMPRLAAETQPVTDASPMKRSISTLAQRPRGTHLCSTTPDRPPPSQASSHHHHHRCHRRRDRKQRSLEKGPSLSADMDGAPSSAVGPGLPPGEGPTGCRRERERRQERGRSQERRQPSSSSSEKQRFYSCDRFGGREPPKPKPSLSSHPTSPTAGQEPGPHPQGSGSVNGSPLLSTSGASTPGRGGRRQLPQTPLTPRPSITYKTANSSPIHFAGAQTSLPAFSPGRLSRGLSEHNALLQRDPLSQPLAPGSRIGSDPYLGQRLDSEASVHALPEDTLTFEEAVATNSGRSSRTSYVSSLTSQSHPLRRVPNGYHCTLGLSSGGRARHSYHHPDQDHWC

Biological target: N-type calcium channel (CaV2.2) (Homo sapiens, UniProt Q00975)
Conditions: cited from earlier work

Substance: ω-conotoxin GVIA
- block of N-type calcium current: equivalent block of N-type calcium currents
